Anti-infective test results gathered from many reports (values: NIAID ChemDB through PubChem).

All rows: whole-cell or culture tests; species: Mycobacterium tuberculosis

An empty or dashed field is not shown. Fold resistance: result on the changed form divided by that on wild type. Inhibition is in % at the dose shown (toxicity tests: loss of growth or viability). ECn is the concentration giving n% inhibition of infection, replication or growth. a–b is a range or a potency band. A number after MIC or MFC names an inhibition level or a share of isolates. Rows are shuffled and stem from different studies. MIC bound: limit read from a one-dose screen.

smiles	changes	method	measure	strain	cells	dose	value
Cc1c(N2CCn3cc(C(=O)O)nc3C2)c([N+](=O)[O-])cc2c(=O)c(C(=O)O)cn(-c3ccc(F)cc3F)c12	-	-	MIC	H37Rv	-	-	5.96 µM
COc1nc2ccc(Br)cc2cc1[C@@H](c1ccccc1)[C@@](O)(CCN(C)C)c1cccc2ccccc12	-	resazurin	fold resistance	H37Rv	-	-	8
CCOC(=O)c1cn(CC)c2cc(-n3cccc3)ccc2c1=O	-	BACTEC	inhibition	H37Rv	-	6.25 µg/mL	34%
CCCCCCC/C=C\CCCCCCCC(=O)O	-	resazurin	MIC100	1896-HF INHr	-	-	>100 µg/mL
COc1cc(/C=C/C(=O)O[C@H]2CC[C@@]3(C)C(CC[C@]4(C)C3CC=C3C5[C@@H](C)[C@H](C)CC[C@]5(C(=O)O)CC[C@]34C)C2(C)C)ccc1OC(C)=O	-	resazurin	MIC	H37Ra	-	-	3.13 µg/mL
Nc1nc(-c2cc3ccccc3o2)c2ccn([C@@H]3O[C@H](CO)C(O)C3O)c2n1	-	MTT	MIC	My 331/88	-	-	>250 µM
Cc1c(N=Nc2ccccc2Cl)c(-c2ccccc2)nn1C(=S)S	-	BACTEC	inhibition	H37Rv	-	128 µg/mL	100%
CCCCNc1nc(CC)nc2sc(C)cc12	-	resazurin	EC50	Erdman	-	-	4.4 µM
C=C(C)[C@@H]1CC[C@]2(C(=O)O)CC[C@]3(C)C(CCC4[C@@]5(C)CC[C@H](OC(=O)/C=C/c6ccc(OC(C)=O)cc6)C(C)(C)C5CC[C@]43C)C12	-	resazurin	MIC	H37Ra	-	-	12.5 µg/mL
CCOC(=O)c1c(NC(=O)c2c(F)c(F)c(F)c(F)c2F)sc2c1CCOC2	-	low oxygen	MIC	-	-	-	4.4 µM
O=c1c2c(c(=O)c(=O)c1=O)Nc1ccccc1N2	-	BACTEC	MIC bound	H37Rv	-	-	≤12.5 µg/mL
O=C(CCC(F)(F)F)N1CC(c2ccc(F)cc2Cl)C1	-	fluorescence	EC50	H37Rv	THP-1	-	0.05–0.25 µM
C=C(C)[C@@H]1CC[C@]2(C(=O)O)CC[C@]3(C)C(CCC4[C@@]5(C)CC[C@H](OC(=O)/C=C/c6ccc(O)c(OC)c6)C(C)(C)C5CC[C@]43C)C12	-	resazurin	MIC	H37Ra	-	-	200 µg/mL
COc1ccc(CC2C3=C(CCCC3)CCN2c2c([N+](=O)[O-])cc3c(=O)c(C(=O)O)cn(-c4ccc(F)cc4F)c3c2C)cc1	-	-	MIC	H37Rv	-	-	20.3 µM
O=C(O)CSC(=S)Nc1ccccn1	-	BACTEC	MIC	H37Rv	-	-	≥128 µg/mL
CCN1CCc2c(sc(NC(=O)c3c(F)c(F)c(F)c(F)c3F)c2C#N)C1	-	resazurin	MIC	H37Rv	-	-	9.8 µM
O=C(c1cn(-c2ccc(Cl)cc2)nn1)c1ccc(Cl)cc1Cl	-	-	inhibition	H37Rv	-	12.5 µg/mL	0%
CC1(C)CC[C@]2(C(=O)O)CC[C@]3(C)C(=CCC4[C@@]5(C)CC[C@H](OC(=O)/C=C/c6ccc(Cl)cc6)C(C)(C)C5CC[C@]43C)C2C1	-	resazurin	MIC	H37Ra	-	-	>200 µg/mL
N#Cc1c(NC(=O)c2c(F)c(F)c(F)c(F)c2F)sc2c1CCOC2	gyrA mutant (D94N)	turbidity	EC90	H37Rv	-	-	15 µM
CCCCCCCC/C=C/CCCCCCCC(=O)NNC(=O)c1ccncc1	-	resazurin	MIC100	ATCC 35822 INHr	-	-	6.25 µg/mL
O=C(CCC(F)(F)F)N1CC(c2cccc(F)c2)C1	-	fluorescence	EC50	H37Rv	THP-1	-	<0.05 µM
COc1cccc(C(=O)CSc2nnc(-c3cc(OC)c(OC)c(OC)c3)o2)c1	-	BACTEC	inhibition	H37Rv	-	6.25 µg/mL	17%
CCn1cc(C(=O)O)c(=O)c2cc(F)c(N3CCN(C)CC3)cc21	-	-	MIC	Isolate 870729	-	-	2 µg/mL
CCc1nc(NC(C(=O)O)C(C)C)c2cc(C)sc2n1	qcrCAB A178T	resazurin	EC50	Erdman	-	-	>20 µM
CN(C)c1ccc(C=C2c3ccccc3C(=O)c3ccccc32)c(Cl)c1	-	BACTEC	inhibition	H37Rv	-	12.5 µg/mL	86%
CCn1cc(C(=O)O)c(=O)c2cc(F)c(N3CCNCC3)nc21	-	-	MIC	Isolate 870729	-	-	5 µg/mL
C(=N\Nc1ccncc1)/c1ccc2ccccc2n1	-	BACTEC	inhibition	H37Rv	-	12.5 µg/mL	99%
O=C(c1ccc(Cl)c(Cl)c1)c1cn(-c2ccccc2)nn1	-	-	inhibition	H37Rv	-	12.5 µg/mL	0%
CC(=O)Oc1ccc(/C=C/C(=O)O[C@H]2CC[C@@]3(C)C(CC[C@]4(C)C3CC=C3C5[C@@H](C)[C@H](C)CC[C@]5(C(=O)O)CC[C@]34C)C2(C)C)cc1	-	resazurin	MIC	H37Ra	-	-	25 µg/mL
CCc1nc2ccc(Cl)cn2c1C(=O)NCc1ccc(N2CCC(c3ccc(OC(F)(F)F)cc3)CC2)cc1	-	resazurin	EC50	Erdman	-	-	0.0015 µM
O=C(CCC(F)(F)F)N1CC(c2ccc(F)cc2F)C1	-	fluorescence	EC50	H37Rv	THP-1	-	<0.05 µM
Cc1cc(O)c2c(c1)C(=O)C(c1c(C)cc3c(c1O)C(=O)C1OC1C3=O)=CC2=O	-	-	MIC	INH-r	-	-	0.4 µg/mL
Cn1cnc2c(NC(=O)NCc3ccccc3)nc(Cl)cc21	-	visual reading	MIC99	H37Rv	-	-	25 µM
C=CCOc1ccc(/C=C/C(=O)c2ccc(O)cc2O)cc1	-	broth dilution	MIC	H37Rv	-	-	100 µg/mL
O=c1cc[nH]c2c1ccc1[nH]ccc(=O)c12	-	BACTEC	MIC	H37Rv	-	-	≥12.5 µg/mL
Cc1c(N2CCC(N3CCCCC3)CC2)c([N+](=O)[O-])cc2c(=O)c(C(=O)O)cn(C(C)(C)C)c12	-	-	MIC	H37Rv	-	-	26.56 µM
COc1ccc(/C=N/NC(=O)c2cnccn2)cc1	-	BACTEC	inhibition	H37Rv	-	12.5 µg/mL	5%
Cc1nc(-c2ccsc2)c2ccn([C@@H]3O[C@H](CO)C(O)C3O)c2n1	-	MTT	MIC	My 331/88	-	-	>250 µM
O=C(CSc1nnc(-c2ccccc2)o1)c1ccc([N+](=O)[O-])cc1	-	BACTEC	inhibition	H37Rv	-	6.25 µg/mL	24%
Cn1cnc2c(NC(=O)Nc3ccccc3Cl)nc(Cl)cc21	-	visual reading	MIC99	H37Rv	-	-	12.5 µM
COc1cc(-c2nnc(SCc3ccccn3)o2)cc(OC)c1OC	-	BACTEC	inhibition	H37Rv	-	6.25 µg/mL	39%
O=C(c1ccccc1)c1cn(-c2cccc3ccccc23)nn1	-	-	inhibition	H37Rv	-	12.5 µg/mL	22%
NNC(=O)c1ccncc1	-	resazurin	MIC100	1896-HF INHr	-	-	2 µg/mL
Cc1ccc(N2C(c3ccccc3)=CC(=C3C=CC(=O)C=C3)C=C2c2ccccc2)cc1	-	BACTEC	MIC bound	H37Rv	-	-	≤12.5 µg/mL
COc1cc(/C=C/C(=O)O[C@H]2CC[C@@]3(C)C(CC[C@]4(C)C3CC=C3C5CC(C)(C)CC[C@]5(C(=O)O)CC[C@]34C)C2(C)C)ccc1O	-	resazurin	MIC	H37Ra	-	-	12.5 µg/mL
CC(=O)Nc1ccc(/C=C2\SC(=S)N(/C=C3\C(=O)N(c4ccccc4)N=C3C)C2=O)cc1	-	resazurin	inhibition	H37Rv	-	6.25 µg/mL	-23%
CCc1nc(NCCCc2ccccc2)c2cc(C)sc2n1	qcrCAB	resazurin	EC50	Erdman	-	-	0.025 µM
NC[C@H]1O[C@H](O[C@H]2[C@H](O)[C@@H](O[C@H]3O[C@H](CO)[C@@H](O)[C@H](N)[C@H]3O)[C@H](N)C[C@@H]2N)[C@H](O)[C@@H](O)[C@@H]1O	-	resazurin	MIC	H37Ra	-	-	2.5 µg/mL
NNC(=O)c1ccccc1	-	-	MIC	Mtb 5	-	-	4 µg/mL
C=C1C(=O)OC2C1CCC(C)C1(O)C=CC(=O)C21C	-	BACTEC	MIC	H37Rv	-	-	≥12.8 µg/mL
CO[C@H]1/C=C/O[C@@]2(C)Oc3c(C)c(O)c4c(O)c(c5c(c4c3C2=O)NC2(CCN(CC(C)C)CC2)N=5)=NC(=O)/C(C)=C\C=C\[C@H](C)[C@H](O)[C@@H](C)[C@@H](O)[C@@H](C)[C@H](OC(C)=O)[C@@H]1C	-	-	MIC	Strain 70 (L533P)	-	-	0.25 µg/mL
C=CCOc1cc(O)cc(O)c1C(=O)C(C)CC	-	broth dilution	MIC	H37Rv	-	-	100 µg/mL
C[C@H]1[C@H](C)CC[C@]2(C(=O)O)CC[C@]3(C)C(=CC[C@@H]4[C@@]5(C)CC[C@H](O)C(C)(C)[C@@H]5CC[C@]43C)[C@H]12	-	resazurin	MIC	H37Ra	-	-	12.5 µg/mL
NC(=O)c1cnccn1	-	-	MIC	1620	-	-	30 µg/mL
O=[N+]([O-])[O][Ga]([O][N+](=O)[O-])[O][N+](=O)[O-]	-	-	inhibition	MDR isolates	-	500 µM	95%
COc1cc2c(cc1OC)CN(c1c([N+](=O)[O-])cc3c(=O)c(C(=O)O)cn(C(C)(C)C)c3c1C)CC2	-	-	MIC	H37Rv	-	-	25.23 µM
Cn1cnc2c(NC(=O)Nc3cccc(C#N)c3)nc(Cl)cc21	-	visual reading	MIC99	H37Rv	-	-	>25 µM
c1ccc(C2OCC(C3OC(c4ccccc4)OC4COC(c5ccccc5)OC43)O2)cc1	-	BACTEC	MIC bound	H37Rv	-	-	>12.5 µg/mL
CC(C)C(=O)c1cn(-c2ccccc2)nn1	-	-	inhibition	H37Rv	-	12.5 µg/mL	50%
CCN1CCc2c(sc(NC(=O)c3c(F)c(F)c(F)c(F)c3F)c2C(N)=O)C1	-	turbidity	MIC	ATCC 35822 INH-R2 isoniazid-resistant	-	-	12 µM
CSC(=S)NN=C(C)C	-	BACTEC	MIC	H37Rv	VERO	-	0.78 µg/mL
Cc1nc(-c2cccc3c2oc2ccccc23)c2ccn([C@@H]3O[C@H](CO)C(O)C3O)c2n1	-	MTT	MIC	My 331/88	-	-	62.5 µM
O=C1C=CC2=Nc3ccccc3CCC2=C1	-	BACTEC	MIC bound	H37Rv	-	-	≤12.5 µg/mL
O=C(CSc1nnc(-c2ccccc2)o1)c1ccc(F)cc1	-	BACTEC	inhibition	H37Rv	-	6.25 µg/mL	58%
Nc1ncc2nc3c4ccccc4c(=O)cc-3oc2n1	-	BACTEC	inhibition	H37Rv	-	12.5 µg/mL	83%
CCN1CCc2c(sc(NC(=O)c3c(F)c(F)c(F)c(F)c3F)c2C(=O)NC)C1	-	turbidity	EC90	ATCC 35822	-	-	3 µM
COc1ccc(C2(CSc3nnc(-c4ccc(O)cc4)o3)OCCO2)cc1OC	-	BACTEC	inhibition	H37Rv	-	6.25 µg/mL	3%
NNC(=O)c1ccc([N+](=O)[O-])o1	-	BACTEC	MIC	H37Rv	-	-	≥12.5 µg/mL
Cn1cnc2c(NC(=O)c3cccc(F)c3)nc(Cl)cc21	-	visual reading	MIC99	H37Rv	-	-	6.25 µM
OC[C@H]1O[C@@H](n2ccc3c(-c4cc5ccccc5o4)nc(F)nc32)C(O)C1O	-	MTT	MIC	My 331/88	-	-	62.5 µM
O=C(CCC(F)(F)F)N1CC(c2cccc(Cl)c2)C1	-	fluorescence	EC50	H37Rv	THP-1	-	<0.05 µM
Cn1cnc2c(NC(=O)c3ccccc3Cl)nc(Cl)cc21	-	visual reading	MIC99	H37Rv	-	-	25 µM
CC1COc2c(N3CCN(C)CC3)c(F)cc3c(=O)c(C(=O)O)cn1c23	-	-	MIC90	21 strains	-	-	1 µg/mL
CC(=O)N1CCNC(=O)/C1=C1\CCOC1=O	-	BACTEC	MIC bound	H37Rv	-	-	>12.5 µg/mL
Cn1cnc2c(NC(=O)c3cccc(C#N)c3)nc(Cl)cc21	-	visual reading	MIC99	H37Rv	-	-	25 µM
COc1nc2ccc(Br)cc2cc1[C@@H](c1ccccc1)[C@@](O)(CCN(C)C)c1cccc2ccccc12	-	resazurin	EC50	Erdman	-	-	<0.078 µM
O=C(NNc1nc(-c2ccc(Cl)cc2)cs1)c1ccccc1Cl	-	BACTEC	MIC bound	H37Rv	-	-	>12.5 µg/mL
Nc1sc(-c2ccccc2)cc1C(=O)O	-	resazurin	MIC	H37Rv	-	-	50 µg/mL
CCOC(=O)c1nc2cc(C(F)(F)F)ccc2nc1Nc1ccc(C(=O)OC)s1	-	resazurin	inhibition	H37Rv	-	6.25 µg/mL	-33%
Cc1nc(F)nc2c1ccn2[C@@H]1O[C@H](CO)C(O)C1O	-	MTT	MIC	My 331/88	-	-	250 µM
CCOC(=O)c1c(NC(=O)c2c(F)c(F)c(F)c(F)c2F)sc2c1CCNC2=O	-	resazurin	MIC	H37Rv	-	-	0.81 µM